Measured values from several laboratories, pooled; numbers as filed in NIAID ChemDB.

All rows: host cell toxicity; cells: Huh7; read-out: CC50

Lines come from different laboratories, so protocols vary. CCn: concentration that lowers growth or viability of the cells by n%.

{"compound": "CN(C)C(=O)c1ccc(COc2ccc(-c3nc4cc(C(=O)O)ccc4n3C3CCCCC3)cc2)c(-c2ccc(Cl)cc2)c1", "value": "28 µM"}
{"compound": "CN(C)C(=O)Cn1c(-c2ccc(Cl)cc2)c(C2CCCCC2)c2sc(C(=O)O)cc21", "value": ">30 µM"}
{"compound": "Nc1ncnc2c1ncn2[C@@H]1O[C@H](OCCP(=O)(O)O)[C@@H](O)[C@H]1O", "value": ">300 µM"}
{"compound": "O=C(c1nn2c(C(F)(F)F)cc(C3CC3)cc2c1Cl)N1CCC2(OCC3(CC3)CO2)[C@@H](O)C1", "read by": "ATP", "value": ">50 µM"}
{"compound": "Nc1ccn(C2CCC(C(=O)O)O2)c(=O)n1", "read by": "XTT", "value": ">250 µg/mL"}
{"compound": "CC(C)N1CCC(N(C)C(=O)Cn2c(-c3ccc(Cl)cc3)c(C3CCCCC3)c3sc(C(=O)O)cc32)C1", "value": ">13 µM"}
{"compound": "C[C@@]1(O)[C@H](O)[C@@H](CO)O[C@H]1c1ccc2c(=O)[nH]c(N)nn12", "read by": "MTT", "value": ">100 µM"}
{"compound": "O=C(O)c1c(-c2ccc(O)cc2)nc(SCc2nc3ccccc3[nH]2)[nH]c1=O", "read by": "MTT", "value": "656 µM"}
{"compound": "C[C@H](NP(=O)(N[C@@H](C)C(=O)OC(C)(C)C)OC[C@H]1O[C@@H](n2cnc(C(N)=O)n2)[C@H](O)[C@@H]1O)C(=O)OC(C)(C)C", "value": ">100 µM"}
{"compound": "CN(C)Cc1c(C(=O)O)sc2c(C3CCCCC3)c(-c3ccccc3)[nH]c12", "value": ">85 µM"}
{"compound": "C[C@]12C=CC(=O)C=C1CC[C@@H]1[C@@H]2C(=O)C[C@@]2(C)[C@H]1CC[C@]2(O)C(=O)CO", "value": ">300 µM"}
{"compound": "O=C(O)c1c(-c2ccccc2)nc(SCc2nc3ccccc3[nH]2)[nH]c1=O", "read by": "MTT", "value": "564 µM"}
{"compound": "NC(=O)c1nnn([C@@H]2C[C@H](CCP(=O)(O)O)C[C@H]2O)c1N", "value": ">320 µM"}
{"compound": "C[C@@]1(O)[C@H](O)[C@@H](CO)O[C@H]1C1C=Nc2c(N)ncn[n+]21", "value": ">89 µM"}
{"compound": "N#Cc1c(-c2ccc(Cl)cc2)nc(SCc2nc3ccccc3[nH]2)[nH]c1=O", "read by": "MTT", "value": "453 µM"}
{"compound": "C[C@H]1C[C@@H]2[C@H]([C@@H](O)C[C@@]3(C)[C@H]2CC[C@]3(O)C(=O)CO)[C@@]2(C)C=CC(=O)C=C12", "value": "300 µM"}
{"compound": "CCCC(NC(=O)[C@@H]1C2CCCC2CN1C(=O)[C@@H](NC(=O)[C@@H](NC(=O)c1cnccn1)[C@@H](C)CC)C(C)(C)C)C(=O)C(=O)NC1CC1", "value": ">100 µM"}
{"compound": "O=C(c1nn2c(C(F)(F)F)cc(C3CC3)cc2c1Cl)N1CCC2(OCC3(CC3)CO2)C(O)C1", "read by": "ATP", "value": ">50 µM"}
{"compound": "CCCC(NC(=O)[C@@H]1C2CCCC2CN1C(=O)[C@@H](NC(=O)[C@@H](O)C(C)C)C(C)C)C(=O)C(=O)NC1CC1", "value": ">100 µM"}
{"compound": "C[C@@]1(O)[C@H](O)[C@@H](CO)O[C@H]1c1ccc2c(N)ncnn12", "read by": "MTT", "value": ">100 µM"}
{"compound": "COC(=O)NC[C@H](C(=O)N1CCCC1c1ncc(-c2ccc(-c3ccc(-c4cnc(C5CCCN5C(=O)[C@@H](NC(=O)OC)C(C)C)[nH]4)cc3)cc2)[nH]1)C(C)C", "read by": "MTT", "value": ">200 µM"}
{"compound": "N#Cc1c(-c2ccccc2Cl)nc(SCc2nc3ccccc3[nH]2)[nH]c1=O", "read by": "MTT", "value": "312 µM"}
{"compound": "NC(=O)c1ncn([C@@H]2O[C@H](CO)[C@@H](O)[C@H]2O)n1", "value": "75 µM"}
{"compound": "CN(C)CCN1C(=O)Cn2c(c(C3CCCCC3)c3sc(C(=O)O)cc32)-c2ccccc21", "value": ">17.5 µM"}
{"compound": "O=C(O)c1c(-c2ccc(F)cc2)nc(NCc2nc3ccccc3[nH]2)[nH]c1=O", "read by": "MTT", "value": "647 µM"}
{"compound": "Nc1ncnc2c1ccn2[C@@H]1O[C@H](CO)[C@@H](O)[C@H]1O", "read by": "MTS", "value": ">89 µM"}
{"compound": "CN1CCN(C(=O)Cn2c(-c3ccccc3)c(C3CCCCC3)c3sc(C(=O)O)cc32)CC1", "value": ">67.5 µM"}
{"compound": "CCC[C@H](NC(=O)[C@@H]1[C@H]2CCC[C@H]2CN1C(=O)[C@@H](NC(=O)[C@@H](NC(=O)c1cnccn1)C1CCCCC1)C(C)(C)C)C(=O)C(=O)NC1CC1", "read by": "MTT", "value": "37 µM"}
{"compound": "O=C(O)c1c(-c2ccc(Cl)cc2)nc(SCc2nc3ccccc3[nH]2)[nH]c1=O", "read by": "MTT", "value": "523 µM"}
{"compound": "O=C(O)c1cc2[nH]c(-c3ccccc3)c(C3CCCCC3)c2s1", "value": ">280 µM"}
{"compound": "N#Cc1c(-c2ccc(O)cc2)nc(SCc2nc3ccccc3[nH]2)[nH]c1=O", "read by": "MTT", "value": "265 µM"}
{"compound": "CCOC(=O)[C@H](C)N[P@@](=O)(OC[C@H]1O[C@@H](n2cnc3c(N)nc(N)nc32)[C@](C)(O)[C@@H]1O)Oc1ccccc1CCC(=O)OC(C)C", "value": ">10 µM"}
{"compound": "CC1COC2(CCN(C(=O)c3nn4c(C(F)(F)F)cc(C5CC5)cc4c3Cl)CC2)OC1", "read by": "ATP", "value": ">50 µM"}
{"compound": "CC(C)OC(=O)CCc1ccccc1O[P@@](=O)(N[C@@H](C)C(=O)OC(C)C)OC[C@H]1O[C@@H](n2cnc3c(N)nc(N)nc32)[C@](C)(O)[C@@H]1O", "value": ">10 µM"}
{"compound": "CCCC(NC(=O)[C@@H]1[C@@H]2CCC[C@@H]2CN1C(=O)[C@@H](NC(=O)OC(C)C)C(C)C)C(=O)C(=O)N[C@@H](C)c1ccccc1", "value": ">100 µM"}
{"compound": "CN(C)CCN1Cc2ccccc2-c2c(C3CCCCC3)c3sc(C(=O)O)cc3n2CC1=O", "value": ">9.75 µM"}
{"compound": "C[C@@]1(O)[C@H](O)[C@@H](CO)O[C@H]1n1ccc2c(N)ncnc21", "read by": "MTT", "value": ">100 µM"}
{"compound": "CC(C)OC(=O)[C@H](C)N[P@](=O)(OC[C@H]1O[C@@](C#N)(c2ccc3c(N)ncnn23)[C@](C)(O)[C@@H]1OC(=O)C(C)C)Oc1ccccc1", "read by": "ATP", "value": ">90 µM"}
{"compound": "COC(=O)N[C@H](C(=O)N1CCC[C@H]1c1nc2ccc(-c3csc4c(-c5ccc(-c6cnc([C@@H]7CCCN7C(=O)[C@H](NC(=O)OC)c7ccccc7)[nH]6)cc5)csc34)cc2[nH]1)C(C)C", "read by": "resazurin", "value": ">50 µM"}
{"compound": "NC(=O)c1cn([C@@H]2C[C@H](CCP(=O)(O)O)C[C@H]2O)nn1", "value": ">320 µM"}
{"compound": "CCOC(=O)CCc1ccccc1O[P@](=O)(N[C@@H](C)C(=O)OCC)OC[C@H]1O[C@@H](n2cnc3c(N)nc(N)nc32)[C@](C)(O)[C@@H]1O", "value": ">10 µM"}
{"compound": "O=C(O)c1c(-c2ccccc2O)nc(SCc2nc3ccccc3[nH]2)[nH]c1=O", "read by": "MTT", "value": "766 µM"}
{"compound": "COc1c(C)c2c(c(O)c1CC(=O)O)C(=O)OC2", "value": "7 µM"}
{"compound": "O=C(CCCCCCC(=O)Nc1ccccc1)NO", "read by": "MTS", "value": "1.9 µM"}
{"compound": "NC(=O)c1ncn([C@@H]2O[C@H](CO)[C@@H](O)[C@H]2O)n1", "value": "110 µM"}
{"compound": "CCOC(=O)CCc1ccccc1OP(=O)(N[C@@H](C)C(=O)OCC)OC[C@H]1O[C@@H](n2cnc3c(N)nc(N)nc32)[C@](C)(O)[C@@H]1O", "value": ">10 µM"}

A second listing of 4 rows from above:

CCCC(NC(=O)[C@@H]1[C@@H]2CCC[C@@H]2CN1C(=O)[C@@H](NC(=O)OC(C)C)C(C)C)C(=O)C(=O)N[C@@H](C)c1ccccc1 ; value: >100 µM
CCOC(=O)CCc1ccccc1O[P@](=O)(N[C@@H](C)C(=O)OCC)OC[C@H]1O[C@@H](n2cnc3c(N)nc(N)nc32)[C@](C)(O)[C@@H]1O ; value: >10 µM
NC(=O)c1ncn([C@@H]2O[C@H](CO)[C@@H](O)[C@H]2O)n1 ; value: 75 µM
O=C(O)c1c(-c2ccc(Cl)cc2)nc(SCc2nc3ccccc3[nH]2)[nH]c1=O ; read by: MTT ; value: 523 µM